The amount applied is not stated for every result.
Test system: SARS-CoV-2-Nluc
Format: cell-based

Row | Structure (SMILES) | fold difference of EC50 between Vero E6 and A549-hACE2 cells (lower in A549-hACE2) | fold lower potency against SARS-CoV-2-Nluc than against HRV
1 | CCC(CC)COC(=O)[C@H](C)N[P@](=O)(OC[C@H]1O[C@@](C#N)(c2ccc3c(N)ncnn23)[C@H](O)[C@@H]1O)Oc1ccccc1 [Remdesivir] | > 10 fold | –
2 | CCOC(=O)/C=C/[C@H](C[C@@H]1CCNC1=O)NC(=O)[C@@H](CC(=O)[C@@H](NC(=O)c1cc(C)on1)C(C)C)Cc1ccc(F)cc1 [Rupintrivir] | – | 156 fold

Source: paper PMC7567097, “A nanoluciferase SARS-CoV-2 for rapid neutralization testing and screening of anti-infective drugs for COVID-19” (Nature Communications, 2020)
